Percent effect of library compounds

From ChEMBL document CHEMBL3988442, “University of Dundee, Small-Polar-MMV Screening Library” (2021).

Each number is a percent effect as filed.
The controls that fix the scale are not given in the record; negative values are as filed.
The entries come from a sample that favours strong results.
A dash means the value is not listed here; it may have been measured.

Mtb cholesterol medium: 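Whole-cell growth test on Mycobacterium tuberculosis, read after 4 days in a medium based on cholesterol and the lipid DPPC; the read-out is not stated. Tested at 500 µM. The record gives no direction; compounds that gave an IC50 in retests scored well above the rest, so higher reads as more growth inhibition. Size under these conditions: about 18,000 compounds, about 900 of them at 50% or above in at least one test.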
Mtb glucose medium: 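Whole-cell growth test on Mycobacterium tuberculosis, read after 3 days in glucose-containing 7H9 medium; the read-out is not stated. Concentration: 500 µM. The record gives no direction; compounds that gave an IC50 in retests scored well above the rest, so higher reads as more growth inhibition. Size under these conditions: about 18,000 compounds, about 1,400 of them at 50% or above in at least one test.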

| structure | Mtb cholesterol medium | Mtb glucose medium |
|---|---|---|
| `[H][C@]12CNC[C@]([H])(CN(S(=O)(=O)c3ccc(F)cc3)C1)O2` | - | -0.08804 |
| `Cn1cncc1CN` | 3.199 | - |
| `CCC(=O)N1CCN(C(=O)Cc2ccc(Br)s2)CC1` | - | 38.57 |
| `Cc1cc(Cl)ccc1NC(=O)CN1CCS(=O)(=O)CC1` | - | 12.83 |
| `CN(C)CCNC(=O)CCS(=O)(=O)c1ccc(Cl)cc1` | 0.4487 | -9.115 |
| `CC(C)NC1CCCc2cccnc21` (centres unmarked) | - | 6.96 |
| `Cc1cc(NC(=O)c2cccc(N(C)C)c2)c[nH]c1=O` | - | -7.184 |
| `COCc1ccccc1C(=O)N1CCCC(O)C1` (centres unmarked) | - | -13.2 |
| `NCc1cnc(-c2ccccc2)nc1` | - | 21.89 |
| `COC(=O)Cc1ccc(-n2cnnn2)cc1` | - | 3.812 |
| `CNC(=O)CN(C)C(=O)c1cc2ccccc2cc1O` | 11.48 | - |
| `CCCN1CCC(NC2CCC3(CC2)OCCO3)CC1` | - | -4.535 |
| `COC(C)(CNC(=O)[C@H]1CCCO1)C1CC1` (some centres unmarked) | 3.195 | - |
| `Cc1ccc(F)cc1CC(=O)N1CC[C@H](O)[C@@H](O)C1` | 2.414 | - |
| `CC1(O)CCN(C(=O)NC(C)(C)C)C1` (centres unmarked) | - | 6.286 |
| `Cc1nscc1C(=O)OCCCn1cccn1` | - | 35.56 |
| `CCC(=O)Nc1ccc(Br)cn1` | 12.7 | 32.86 |
| `CC1CCCCN1Cc1nc(-c2ccccn2)no1` (centres unmarked) | 9.458 | 20.86 |
| `NCCc1nnc(N)s1` | - | -5.173 |
| `N#CCCN1CCCN(c2ccc(C#N)cc2)CC1` | - | 59.39 |
| `CCc1nn(C)c(N)c1CC` | - | 20.61 |
| `CCCn1cc(NC(=O)c2ccc(O)nc2)ccc1=O` | - | 0.5908 |
| `COCCN(C)CCCNC(=O)c1cc(C2CC2)on1` | - | 17 |
| `CCN(CC)CC(=O)Nc1c2c(nn1C)CCC2` | - | -9.826 |
| `Cn1cccc1CN1CC(O)(CC#N)C1` | -10.24 | 2.67 |
| `O=S(=O)(c1cccc2nsnc12)N1CCNCC1` | - | -17.78 |
| `CC1CN(c2cc(C(F)(F)F)ccn2)CCS1(=O)=O` (centres unmarked) | - | -0.8382 |
| `CN1C(=O)C[C@H](N)[C@H]1c1cccnc1` | 6.59 | - |
| `CC(Sc1ncccc1Br)C(=O)N(C)CCC#N` (centres unmarked) | - | 31.44 |
| `CC1(NC(=O)C2CCC2)CCS(=O)(=O)C1` (centres unmarked) | - | 0.2751 |
| `CCSCC(C)N(C)C(=O)c1cccc2nn[nH]c12` (centres unmarked) | -9.044 | 9.617 |
| `CN1C(=O)c2ccccc2NC12CCOCC2` | - | 12.63 |
| `CN1CCCN(C(=O)COc2ccccc2)CC1` | 4.241 | 12.03 |
| `COc1ccc(S(=O)(=O)N2CCCNCC2)cc1` | - | 6.919 |
| `CC(C)(C)OC(=O)NCCC(=O)NCc1cccnc1` | - | -1.443 |
| `CN(Cc1ccc(Br)s1)CC(O)COCCO` (centres unmarked) | 72.16 | 56.71 |
| `O=C(Nc1cccnc1N1CCC(CO)CC1)C1CC1` | 34.4 | 56.91 |
| `Cc1nn(C)c(Cl)c1C1CCCN1` (centres unmarked) | -4.685 | - |
| `O=C(NCc1cccnc1)c1ccc(C(F)(F)F)nc1` | -5.74 | 18.87 |
| `NCc1cccc(OCC(F)(F)F)n1` | - | 0.9733 |
| `CNC(C)c1ccc(-n2cncn2)cc1` (centres unmarked) | 7.431 | - |
| `CCCNC(=O)c1cc(C(C)C)on1` | 66.2 | 55.23 |
| `COc1ccc(NC(=O)c2ccc(S(N)(=O)=O)o2)cc1` | - | 53.45 |
| `Cc1cn(CC(=O)NCC[S+](C)[O-])c2ccccc12` (centres unmarked) | -17.42 | - |
| `COC(=O)CSc1nc2ncc(Br)cc2[nH]1` | - | 3.31 |
| `Cc1cc(CS(=O)(=O)Cc2ccc(C(N)=O)cc2)no1` | - | -8.691 |
| `NC[C@]12C[C@H]1CCN2Cc1ccccc1` | 52.87 | 48.28 |
| `COc1ccc2[nH]c(C)nc2c1` | - | 3.122 |
| `NC1(CO)CCOc2ccccc21` (centres unmarked) | - | 4.726 |
| `Cn1cc(Br)c(CN)n1` | - | 1.427 |
| `FC(F)(F)c1cccc(NCc2cccnc2)n1` | 86.25 | 84.2 |
| `O=C(NCc1nnc2n1CCC2)c1sccc1C1CC1` | 7.172 | - |
| `COC(=O)COC(C)(C)C` | - | -5.255 |
| `Nc1cc(=O)[nH]n1-c1ccc(C(F)(F)F)cn1` | 87.25 | 61.33 |
| `Cc1ccc(S(C)(=O)=O)cc1NC(=O)C1CCC1` | 1.158 | - |
| `CC(C)(C)CNC(=O)Cc1csc(N2CCCC2=O)n1` | - | 0.8532 |
| `Cc1ccc(NC(=O)CNCCN2CCOCC2)cc1` | - | 10.68 |
| `CNc1nc(C(=O)N[C@@H]2CC[C@@H](N)C2)cs1` | - | 2.865 |
| `COc1ccc(C(=O)NCC2CCCN2)cc1` (centres unmarked) | -4.635 | 15.99 |

Some entries from above, unchanged:

structure,Mtb cholesterol medium,Mtb glucose medium
NCCc1nnc(N)s1,-,-5.173
COc1ccc(NC(=O)c2ccc(S(N)(=O)=O)o2)cc1,-,53.45
CCCN1CCC(NC2CCC3(CC2)OCCO3)CC1,-,-4.535
COc1ccc2[nH]c(C)nc2c1,-,3.122
O=C(NCc1cccnc1)c1ccc(C(F)(F)F)nc1,-5.74,18.87
CC1(O)CCN(C(=O)NC(C)(C)C)C1 (centres unmarked),-,6.286
CC(C)(C)CNC(=O)Cc1csc(N2CCCC2=O)n1,-,0.8532